Results of unrelated studies side by side (data: NIAID ChemDB).

Common to all: growth or infection tests; agent: HIV-1; cell line: MT-4; endpoint: EC50

a–b is a range or a potency band.

smiles | strain | mutations | read by | conditions | value
CCc1c(Cc2ccc(OC)c(OC)c2)n(COCC2CC2)c(=O)[nH]c1=O | IIIB |  | MTT |  | >100 µM
CC(C)[C@H](NC(=O)OCc1ccccn1)C(=O)N[C@@H](Cc1ccccc1)[C@@H](O)C[C@H](Cc1ccccc1)NC(=O)OCc1cccnc1 | NL4-3 | PR-M46I L63P V82T I84V | p24 |  | <3 µM
CC(=O)Nc1nc2ccc(S(=O)(=O)N(CC(C)C)C[C@@H](O)[C@H](Cc3ccccc3)NC(=O)O[C@H]3CCOC3)cc2[nH]1 | LAI WT |  | cytopathic effect / MTT |  | 0.05 µM
CC(C)C1=C2[C@H]3CC[C@@H]4[C@@]5(C)CC[C@H](OC(=O)C6C[C@@H](C(=O)O)C6(C)C)C(C)(C)[C@@H]5CC[C@@]4(C)[C@]3(C)CC[C@@]2(NC(=O)C(C)(C)NC(=O)c2cnn3cccnc23)CC1=O | NL4-3 | V7A | p24 |  | 0.01001–0.05 µM
COc1cc(/C=N/n2sc3ccccc3c2=O)ccc1O |  | EFV-resistant (K103 V179D P225H) | MTT |  | >15 µM
Cc1nc2ccccc2c(-c2cc(F)c3c(c2C)CCCO3)c1[C@H](OC(C)(C)C)C(=O)O | NL4-3 | T124N/T125A | luminescence |  | 0.039 µM
Cc1nc2c(c(C)c(C)n2Cc2ccc(F)nc2)c(-c2ccc(Cl)cc2)c1[C@H](OC(C)(C)C)C(=O)O | IIIB |  | MTT |  | 0.00765 µM
COc1cccc2c1nc(-c1ccccc1F)n2Cc1cccc(F)c1 | IIIB |  |  |  | 0.0048 µg/mL
COc1ccc(/C=N/n2sc3ccccc3c2=O)cc1 |  | EFV-resistant (K103 V179D P225H) | MTT |  | >19 µM
COc1cccc2c1nc(-c1ccccc1F)n2Cc1ccccc1C | IIIB |  |  |  | 0.13 µg/mL
N#CC1=CC2C(c3ccccc3N2Cc2ccccc2)N(c2ccc([N+](=O)[O-])cc2)C1=O | LAI |  | cytopathic effect / MTT |  | 1–32 µM
O=c1c2ccccc2sn1/N=C/c1ccc2c(c1)OCO2 |  |  | MTT |  | >17 µM
CCc1c(Cc2ccc(C)cc2)n(COCc2ccccc2)c(=O)[nH]c1=O | N119 | Y181C | MTT |  | >44 µM
CC(C)C1=C2[C@H]3CC[C@@H]4[C@@]5(C)CC[C@H](OC(=O)C6C[C@@H](C(=O)O)C6(C)C)C(C)(C)[C@@H]5CC[C@@]4(C)[C@]3(C)CC[C@@]2(NC(=O)C(C)(C)NC(=O)CN2CCS(=O)(=O)CC2)CC1=O | NL4-3 | V7A | p24 |  | 0.01001–0.05 µM
C#CCOCn1c(Cc2c(F)c(F)cc(F)c2F)c(CC)c(=O)[nH]c1=O | A17 | K103N + Y181C | MTT |  | >5 µM
Cc1cc(/C=C/C#N)cc(C)c1Oc1nc(NC2CCN(Cc3ccccc3Br)CC2)nc2ccsc12 | IIIB | NNRTI-resistant (RT F227L V106A) | MTT |  | 0.0895 µM
COP(=O)(c1cc(C)cc(CCC#N)c1)c1c(C(N)=O)[nH]c2ccc(Cl)c(F)c12 | IIIB |  | cytopathic effect |  | 0.001 µM
C#CCOCn1c(Cc2cccc(C(F)(F)F)c2)c(CC)c(=O)[nH]c1=O | N119 (Y181C) |  | MTT |  | 5.5 µM
O=c1c2ccccc2sn1/N=C/c1ccc([N+](=O)[O-])cc1[N+](=O)[O-] |  | K103N + Y181C | MTT |  | >100 µM
N#Cc1cc(Cl)cc(Oc2c(Br)ccc(CC(=O)Nc3ccc(S(N)(=O)=O)cc3Cl)c2F)c1 |  | G190A |  |  | 0.0007 µM
CCc1c(Cc2ccccc2)n(COCC2CC2)c(=O)[nH]c1=O | A17 | K103N/Y181C | MTT |  | >100 µM
CCC(C)[C@@H](C(=O)N[C@@H](Cc1ccccc1)[C@H](O)CN(CC1CCCC1)S(=O)(=O)c1ccc(/C=N/O)cc1)N1CCN(Cc2cccnc2C)C1=O |  |  | cytopathic effect / MTT | 50% human serum | 0.01 µM
CC1(C)CC=C(c2cn(-c3nccc(C(=O)NC4CCC(N5CC6CCC(C5)O6)CC4)n3)c3ccc(F)c([C@H](OC(C)(C)C)C(=O)O)c23)CC1 | NL4-3 | L102F | luminescence |  | 0.502 µM
COC(=O)Nc1nc2ccc(S(=O)(=O)N(CC(C)C)C[C@@H](O)[C@H](Cc3ccccc3)NC(=O)OC3COC4OCCC34)cc2[nH]1 | LAI WT |  | cytopathic effect / MTT |  | 0.025 µM
C=CCN1c2ccccc2C2C1C=C(C#N)C(=O)N2c1ccc([N+](=O)[O-])cc1 | LAI |  | cytopathic effect / MTT |  | <1 µM
O=c1c2ccccc2sn1/N=C/c1ccc(O)cc1 |  |  | MTT |  | >18 µM
C#CCOCn1c(Cc2cccc(C(F)(F)F)c2)c(C(C)C)c(=O)[nH]c1=O | N119 (Y181C) |  | MTT |  | 2.6 µM
O=c1c2ccccc2sn1/N=C/c1ccc(O)cc1O |  | K103N + Y181C | MTT |  | >21 µM
CCc1c(Cc2ccccc2C)n(COCC#Cc2ccc(NC(=O)C(F)(F)F)cc2)c(=O)[nH]c1=O | IIIB | EFV-resistant (K103R V179D P225H) | MTT |  | >45 µM
COC(=O)Nc1nc2ccc(S(=O)(=O)N(CC(C)C)C[C@@H](O)[C@H](Cc3ccccc3)NC(=O)COc3c(C)cc(C#N)cc3C)cc2[nH]1 | LAI WT |  | cytopathic effect / MTT |  | 0.016 µM
Cc1cc(C#N)cc(C)c1Oc1nc(NC2CCC(NCc3cccc(C(F)(F)F)c3)CC2)nc2ccsc12 | IIIB | NNRTI-resistant (RT E138K) | MTT |  | >707 µM
CCOCn1c(Cc2cc(C(F)(F)F)cc(C(F)(F)F)c2)c(CC)c(=O)[nH]c1=O | A17 | K103N + Y181C | MTT |  | >100 µM
Cc1nc2c(c(C)c(C)n2Cc2ccsc2)c(-c2ccc(Cl)cc2)c1[C@H](OC(C)(C)C)C(=O)O | IIIB |  | MTT |  | 0.02817 µM
CCC(C)[C@@H](C(=O)N[C@@H](Cc1ccccc1)[C@H](O)CN(CC(C)C)S(=O)(=O)c1ccc(/C=N/O)cc1)N1CCN(Cc2cccnc2C)C1=O |  |  | cytopathic effect / MTT |  | 0.002 µM
Cc1cc(C#N)cc(C)c1Oc1nc(NC2CCC(NCc3ccccc3)CC2)nc2ccsc12 | IIIB | NNRTI-resistant (RT F227L V106A) | MTT |  | 1.05 µM
CCc1c(Cc2ccc(OC)c(OC)c2)n(COCc2ccccc2)c(=O)[nH]c1=O | IIIB |  | MTT |  | 12 µM
N#Cc1cc2[nH]c3ccccc3c2n(-c2ccc([N+](=O)[O-])cc2)c1=O | H | RT-K103N Y181C | cytopathic effect / MTT |  | 1.59 µM
Cc1cn([C@H]2C=C[C@@H](CO)O2)c(=O)[nH]c1=O | RD 05-RT-41L D215Y K65R Recombinant |  | cytopathic effect / MTT |  | 0.22 µM
COc1cccc2c1nc(-c1ccccc1F)n2Cc1cccc(C(F)(F)F)c1 | IIIB |  |  |  | 0.082 µg/mL
CC(C)C1=C2[C@H]3CC[C@@H]4[C@@]5(C)CC[C@H](OC(=O)C6C[C@@H](C(=O)O)C6(C)C)C(C)(C)[C@@H]5CC[C@@]4(C)[C@]3(C)CC[C@@]2(NC(=O)C(C)(C)NC(=O)c2csc(N)n2)CC1=O | NL4-3 | V7A | p24 |  | >0.05 µM
Cn1c2ccccc2c2c1cc(C#N)c(=O)n2-c1ccc([N+](=O)[O-])cc1 | I | RT-K101E K103N | cytopathic effect / MTT |  | 0.06 µM
Cc1ccc(C(=O)NC2(C(=O)N[C@@]34CC[C@]5(C)[C@H](CC[C@@H]6[C@@]7(C)CC[C@H](OC(=O)C8C[C@@H](C(=O)O)C8(C)C)C(C)(C)[C@@H]7CC[C@]65C)C3=C(C(C)C)C(=O)C4)CC2)cc1 | NL4-3 |  | p24 |  | <0.005 µM
CC(C)CN(C[C@@H](O)[C@H](Cc1ccccc1)NC(=O)OCc1cncs1)S(=O)(=O)c1ccc2nc[nH]c2c1 | LAI WT |  | cytopathic effect / MTT |  | 0.05 µM
Cc1cc(/C=C/C#N)cc(C)c1Oc1nc(NC2CCN(Cc3ccccc3Cl)CC2)nc2ccsc12 | RES056 |  | MTT |  | 0.165 µM
Cc1nc2c(c(C)c(C)n2Cc2nccs2)c(-c2ccc(Cl)cc2)c1[C@H](OC(C)(C)C)C(=O)O | IIIB |  | MTT |  | <0.683 µM
C=CCOCn1c(Cc2cccc(F)c2)c(CC)c(=O)[nH]c1=O | A17 | K103N + Y181C | MTT |  | 42 µM
CCc1c(Cc2cc(C)cc(C)c2)n(COCC#Cc2cccc(C#N)c2)c(=O)[nH]c1=O | IIIB | K103N + Y181C | MTT |  | 8.5 µM
Cc1cc(C#N)cc(C)c1Oc1nc(NC2CCC(NCc3ccc([N+](=O)[O-])cc3)CC2)nc2ccsc12 | IIIB | NNRTI-resistant (RT L100I) | MTT |  | 1.55 µM
CCc1c(Cc2ccccc2C)n(COCC#CC2c3ccccc3-c3ccccc32)c(=O)[nH]c1=O | IIIB | K103N + Y181C | MTT |  | >50 µM
Cc1nnc(C(=O)NC(C)(C)c2nc(C(=O)NCc3ccc(F)cc3)c(O)c(=O)n2C)o1 | IIIB |  | MTT |  | 0.00405 µM
CC(C)CN(C[C@@H](O)[C@H](Cc1ccccc1)NC(=O)[C@@H](N1CCN(Cc2cccnc2)C1=O)C(C)(C)C)S(=O)(=O)c1ccc(/C=N/O)cc1 | A17 (LPV-resistant) | PR-L10F V32I M46I I47V Q68E I84V | cytopathic effect / MTT |  | 0.001 µM
COc1cccc2c1nc(-c1ccccc1F)n2Cc1ccc(F)cc1 | IIIB |  |  |  | 0.47 µg/mL
Cc1cc(C(=O)NC(C)(C)C(=O)N[C@@]23CC[C@]4(C)[C@H](CC[C@@H]5[C@@]6(C)CC[C@H](OC(=O)C7C[C@@H](C(=O)O)C7(C)C)C(C)(C)[C@@H]6CC[C@]54C)C2=C(C(C)C)C(=O)C3)c(C)o1 | NL4-3 | V7A | p24 |  | <0.01 µM
COCc1cccc(CN2CCN([C@H](C(=O)N[C@@H](Cc3ccccc3)[C@H](O)CN(CC(C)C)S(=O)(=O)c3ccc(/C=N/O)cc3)C(C)(C)C)C2=O)n1 |  |  | cytopathic effect / MTT |  | 0.002 µM
Cc1cc(/C=C/C#N)cc(C)c1Oc1nc(NC2CCN(Cc3ccc(Br)cc3)CC2)nc2ccsc12 | IIIB | NNRTI-resistant (RT Y181C) | MTT |  | 0.127 µM
CCc1c(Cc2ccc(C)cc2)n(COCCCc2ccccc2)c(=O)[nH]c1=O | IIIB |  | MTT |  | >43 µM
CC(C)C1=C2[C@H]3CC[C@@H]4[C@@]5(C)CC[C@H](OC(=O)C6C[C@@H](C(=O)O)C6(C)C)C(C)(C)[C@@H]5CC[C@@]4(C)[C@]3(C)CC[C@@]2(NC(=O)C(C)(C)NS(=O)(=O)c2ccc(Cl)cc2)CC1=O | NL4-3 |  | p24 |  | >0.01 µM
CCC(C)[C@@H](C(=O)N[C@@H](Cc1ccccc1)[C@H](O)CN(CC1CCCC1)S(=O)(=O)c1ccc(/C=N/O)cc1)N1CCN(Cc2cccnc2)C1=O |  |  | cytopathic effect / MTT |  | 0.002 µM
CCc1c(Cc2cc(C)cc(C)c2)n(COCC#Cc2ccc(CO[Si](c3ccccc3)(c3ccccc3)C(C)(C)C)cc2)c(=O)[nH]c1=O | IIIB | WT | MTT |  | 1.4 µM

An empty or dashed field is not shown. ECn is the concentration giving n% inhibition of infection, replication or growth. Lines come from different laboratories, so protocols vary.